The assay relates to chikungunya virus (CHIKV). Kind of assay: Inhibition of chikungunya virus (CHIKV) in HEK-293T cells, glycoprotein E2 immunostaining. Conditions: for in vitro replication of the chikungunya virus (CHIKV) (anti-E2 immunostaining): Example 35, HEK-293T cells pre-treated, infected 3 hours later, MOI=1, 24 hours, FIG. 9; for in vitro replication of CHIKV (glycoprotein E2 expression by immunostaining): HEK-293T cells, M.O.I.=0.1, compounds at 2.5 μg/ml, FIG. 1.

Turning to `C=Cc1cccc(-c2coc3c2C(=O)CCC3)c1` [GAC50, 3-(3-ethenylphenyl)-6,7-dihydro-5H-benzofuran-4-one], the “in vitro replication of the chikungunya virus (CHIKV) (anti-E2 immunostaining)” value was “blocked”. On to `O=c1oc2ccccc2c2c1C(c1c[nH]c3ccccc13)C([N+](=O)[O-])O2` (stereo not shown) [Example 123-G05, 3-(1H-Indol-3-yl)-2-nitro-2,3-dihydrofuro[3,2-c]chromen-4-one], for which the “in vitro replication of CHIKV (glycoprotein E2 expression by immunostaining)” value is on record as “blocked”.

Consider `O=C1CCCc2occ(-c3cccc(Cl)c3)c21` [Example 129-G03, 3-(3-chlorophenyl)-6,7-dihydro-5H-benzofuran-4-one], for which the “in vitro replication of the chikungunya virus (CHIKV) (anti-E2 immunostaining)” value is “blocked” and the “in vitro replication of CHIKV (glycoprotein E2 expression by immunostaining)” value was “blocked”.

(Values after patent publication US9315482B2, “Derivatives useful as antiviral agents” (priority 2010, dated 2016).)
